Results of unrelated studies side by side (data: NIAID ChemDB).

All rows: toxicity to cultured cells; cells: HepG2; endpoint: CC50

CCn: concentration that lowers growth or viability of the cells by n%. Neighbouring rows are from separate reports. Blank or dashed fields: not listed here. a–b is a range or a potency band.

SMILES,method,result
Fc1ccc(Cc2ccc3c(NCCCNCc4ccco4)ccnc3c2)cc1,fluorescence,5.6 µM
COc1cccc2ccc(N3CCC(c4nc(-c5ccc(Cl)nc5)no4)CC3)nc12,MTS,20–50 µM
Cc1cc(NC(=O)c2c(C3CC3)c(C(=O)C(=O)NC3CCC(S(C)(=O)=O)CC3)n(C)c2C)ccc1F,MTT,>30 µM
CC(C)C[C@@H]1NC(=O)[C@H](Cc2c[nH]c3ccccc23)NC(=O)[C@H]2CCCN2C(=O)[C@H](CCCCN)NC(=O)[C@H](C(C)C)NC(=O)[C@@H](CC(C)C)NC1=O,MTT,>30 µM
Cc1cc(NC(=O)c2c(C)c(C(=O)C(=O)NC3(C)CCC(O)CC3)n(C)c2C)cc(C)c1F,MTT,>30 µM
COc1cccc2ccc(N3CCC(c4nc(-c5ccc(O)cc5)no4)CC3)nc12,MTS,>100 µM
CC(C)C[C@@H]1NC(=O)[C@H](Cc2c[nH]c3ccccc23)NC(=O)[C@@H](Cc2ccccc2)NC(=O)[C@H](CCCCN)NC(=O)[C@H](C(C)C)NC(=O)[C@@H](CC(C)C)NC1=O,MTT,>30 µM
COc1cc(F)cc(-c2ccc(C(=O)N(Cc3cccc(OCCCCCC(=O)OC(=O)O)c3)C(C)C)cc2)c1,-,>20 µM
c1ccc(OCCCN2c3ccccc3Sc3ccccc32)cc1,resazurin,>32 µg/mL
CC(C)(C)OC(=O)NCC(OC(=O)C(O)CO)c1ccc2c(c1)OCO2,-,>20 µM
COc1ccc(-c2ccc3c(NCCCNCc4cc(F)ccc4OC)ccnc3c2)cc1,fluorescence,5.96 µM
CN(C)CCCN1c2ccccc2Sc2ccc(Cl)cc21,resazurin,8 µg/mL
C/C=C/C=C/c1nc2ccc(OC)cc2n2cccc12,MTT / absorbance,8.7 µM
COc1cccc(CNCCCNc2ccnc3cc(Cc4ccc(F)cc4)ccc23)c1O,fluorescence,4.78 µM
CNC(=O)c1c(Cl)c(-n2c(NC(C)C)nc3c(c2=O)C[C@@H](C)N(C(=O)c2ccc(Br)c(C(F)(F)F)c2)C3)nn1C,luminescence,>50 µM
CC(C)C[C@@H]1NC(=O)[C@H](Cc2c[nH]c3ccccc23)NC(=O)[C@@H](C)NC(=O)[C@H](CCCCN)NC(=O)[C@H](C(C)C)NC(=O)[C@@H](CC(C)C)NC1=O,MTT,>30 µM
CCOC(=O)CCCCCOc1cccc(CN(C(=O)c2ccc(-c3cccc(-c4ccccc4)c3)cc2)C(C)C)c1,-,>20 µM
COc1ccc(F)cc1CNCCCNc1ccnc2cc(CCc3ccccc3)ccc12,fluorescence,4.24 µM
CC(C)C[C@@H]1NC(=O)[C@H](Cc2c[nH]c3ccccc23)NC(=O)[C@@H](CCCCN)NC(=O)[C@H](CC(N)=O)NC(=O)[C@H](C(C)C)NC(=O)[C@@H]2CCCN2C1=O,MTT,>30 µM
CCOC(=O)CCCCCOc1cccc(CN(C(=O)c2ccc(-c3ccc4c(c3)OCO4)cc2)C(C)C)c1,-,>20 µM
Cc1c(C(=O)Nc2cccc(S(N)(=O)=O)c2)c(C)n(C)c1C(=O)C(=O)NC(C)(C)C,MTT,>30 µM
C#CCCC(=O)CCCc1ccc(OC)c(OC)c1,-,>20 µM
C/C=C/C=C/c1nc2cccc(OC)c2n2cccc12,MTT / absorbance,6.5 µM
Cc1cc(NC(=O)c2c(C)c(C(=O)C(=O)NC3CCC(S(C)(=O)=O)CC3)n(C)c2C(C)C)ccc1F,MTT,>30 µM
COc1cccc(CNCCCNc2ccnc3cc(CCc4ccccc4)ccc23)c1O,fluorescence,6.8 µM
CNC(=O)c1cnc(-n2c(NC(C)C)nc3c(c2=O)C[C@@H](C)N(C(=O)c2ccc(Cl)c(C(F)(F)F)c2)C3)n1C,luminescence,>50 µM
CC(C)C[C@@H]1NC(=O)[C@H](Cc2c[nH]c3ccccc23)NC(=O)[C@@H](CC2CCCCC2)NC(=O)[C@H](CCCCN)NC(=O)[C@H](C(C)C)NC(=O)[C@@H](CC(C)C)NC1=O,MTT,>30 µM
CNC(=O)c1cnc(-n2c(NC(C)C)nc3c(c2=O)C[C@@H](C)N(C(=O)c2ccc(Cl)c(C(F)(F)F)c2)C3)c(Cl)c1,luminescence,44 µM
COc1ccc(F)cc1CNCCCNc1ccnc2cc(Cc3ccc(C#N)cc3)ccc12,fluorescence,6.05 µM
CNC(=O)[C@H]1CC[C@H](n2c(NC(C)C)nc3c(c2=O)C[C@@H](C)N(C(=O)c2ccc(Br)c(C(F)(F)F)c2)C3)C1,luminescence,16.6 µM
CN(C)CCC(O)(c1cccc(F)c1)C1c2ccccc2Sc2ccccc21,resazurin,12 µg/mL
COc1cccc2ccc(N3CCC(c4nc(-c5ccc(N6CCCC6)nc5)no4)CC3)nc12,MTS,>100 µM
CCC/C=C/C=C/c1nc2cccc(OC)c2n2cccc12,MTT / absorbance,17.4 µM
CCOC(=O)CCCCCOc1cccc(CN(C(=O)c2ccc(-c3cccc(OC(F)(F)F)c3)cc2)C(C)C)c1,-,>20 µM
Cc1c(C(=O)Nc2cccc(B(O)O)c2)c(C)n(C)c1C(=O)C(=O)NC(C)(C)C,MTT,>30 µM
CCOC(=O)CCCCCOc1cccc(CN(C(=O)c2ccc(Br)cc2)C(C)C)c1,-,>20 µM
CNC(=O)[C@H]1CC[C@@H](n2c(NC(C)C)nc3c(c2=O)C[C@@H](C)N(C(=O)c2ccc(Cl)c(C(F)(F)F)c2)C3)C1,luminescence,23.2 µM
Cc1c(C(=O)Nc2ccc(F)c(C#N)c2)c(C)n(C)c1C(=O)C(=O)NC1(C)CC(O)C1,MTT,>30 µM
COc1cccc2ccc(N3CCC(c4nc(-c5ccc(N6CCNCC6)nc5)no4)CC3)nc12,MTS,<20 µM
Cc1cc(NC(=O)c2c(C)c(C(=O)C(=O)NC3(C)CCC(O)CC3)n(C)c2C2CCCCC2)ccc1F,MTT,>30 µM
OCCCN1c2ccccc2Sc2ccccc21,resazurin,24 µg/mL
C/C=C/C=C/c1nc2ccccc2n2cccc12,MTT / absorbance,10.3 µM
CCOC(=O)CCCCCOc1cccc(CN(C(=O)c2ccc(-c3cc(F)cc(OC)c3)cc2)C(C)C)c1,-,>20 µM